Results of unrelated studies side by side (data: NIAID ChemDB).

Shared fields: tests in culture; organism: HIV-1; read by: cytopathic effect / XTT; measure: EC50

ECn: concentration that inhibits the pathogen or its effect by n%. An empty or dashed field is not shown. Lines come from different laboratories, so protocols vary. Two numbers with a dash give a range or band.

{"compound": "Nc1nc2c(ncn2[C@H]2C=CC[C@@H](CO)C2)c(=O)[nH]1", "cells": "CEM + CEM-SS", "strain": "RF", "value": ">50 µg/mL"}
{"compound": "Cc1cc(C)nc(SC(F)(F)c2nc3ccccc3o2)n1", "cells": "CEM + CEM-SS", "strain": "RF", "value": "2.16 µM"}
{"compound": "CCCCCCCCCCCCCCCC(=O)Nc1ccn([C@H]2C[C@H](OP(=O)(O)OC[C@H]3O[C@@H](n4cc(C)c(=O)[nH]c4=O)C[C@@H]3N=[N+]=[N-])[C@@H](CO)O2)c(=O)n1", "cells": "CEM + CEM-SS", "strain": "IIIB", "value": "0.384–3.54 µM"}
{"compound": "CC(=O)N[C@H](CS(=O)(=O)c1ccc2ccccc2c1)C(=O)N[C@@H](Cc1ccccc1)[C@H](O)Cc1ccccc1C(=O)NC(C)(C)C", "cells": "MT-2", "strain": "RF", "value": "0.03 µM"}
{"compound": "CC(C)Oc1ccccc1CNC(=O)c1ccc2cnccc2n1", "cells": "CEM + CEM-SS", "strain": "RF", "value": ">31 µM"}
{"compound": "Cc1ccnc2c1N(C(=O)CN1CCN(c3cc4c(cc3F)c(=O)c(C(=O)O)cn4C3CC3)CC1)C(=O)c1cccnc1N2C1CC1", "cells": "CEM", "value": "0.227 µM"}
{"compound": "O=C(NCCc1ccccc1)C1=Cc2ccncc2CC1", "cells": "CEM + CEM-SS", "strain": "IIIB", "value": ">34 µM"}
{"compound": "Cc1c(CC#N)c(=O)oc2c3c(ccc12)OC(C)(C)[C@H](OC(=O)C12CCC(C)(C(=O)O1)C2(C)C)[C@@H]3OC(=O)C12CCC(C)(C(=O)O1)C2(C)C", "cells": "MT-4", "strain": "IIIB", "value": "2.96 µM"}
{"compound": "COc1c(Cl)cc(C(=CCC(=O)N[C@@H]2CC[C@@]3(C)[C@@H](CC[C@@H]4[C@@H]3CC[C@]3(C)[C@@H]([C@H](C)CCCC(C)C)CC[C@@H]43)C2)c2cc(Cl)c(OC)c(C(=O)O)c2)cc1C(=O)O", "cells": "CEM + CEM-SS", "strain": "RF", "value": ">13.5 µM"}
{"compound": "CCCc1cc(=O)oc2c3c(c4c(c12)OC(C)(C)CC4)O[C@H](C)[C@@H](C)C3=O", "cells": "PBMC", "strain": "ROJO", "value": "2.66 µM"}
{"compound": "CC(C)CCC[C@@H](C)[C@H]1CC[C@H]2[C@@H]3CC[C@H]4C[C@@H](CCC=C(c5cc(Cl)c(O)c(C(=O)O)c5)c5cc(Cl)c(O)c(C(=O)O)c5)CC[C@]4(C)[C@H]3CC[C@]12C", "cells": "CEM + CEM-SS", "strain": "RF", "value": "5.1 µM"}
{"compound": "Nc1nc(NC2CC2)c2ncn([C@H]3C=C[C@@H](CO)C3)c2n1", "cells": "C8166", "strain": "RT-K65R M184V", "value": "11.3 µM"}
{"compound": "COc1ccccc1CNC(=O)C1=Cc2ccncc2CC1", "cells": "CEM + CEM-SS", "strain": "RF", "value": ">181 µM"}
{"compound": "Nc1ccn([C@H]2CC[C@@H](CO)O2)c(=O)n1", "cells": "CEM + CEM-SS", "strain": "IIIB", "value": "0.0015 µM"}
{"compound": "O=c1[nH]cnc2c1nnn2[C@H]1C=CC[C@@H](CO)C1", "cells": "CEM + CEM-SS", "strain": "RF", "value": ">50 µg/mL"}
{"compound": "CCCCCCCCCCCCCCCC(=O)Nc1ccn([C@H]2CC[C@@H](COP(=O)(O)OC[C@H]3O[C@@H](n4cc(C)c(=O)[nH]c4=O)C[C@@H]3N=[N+]=[N-])O2)c(=O)n1", "cells": "CEM + CEM-SS", "strain": "IIIB", "value": "0.15–71 µM"}
{"compound": "O=C(Nc1ccccc1)c1cc(S(=O)(=O)N2CCNNC2=O)c(S)cc1Cl", "cells": "CEM", "value": "4.69 µM"}
{"compound": "COc1cc2c(c3oc(=O)c(COC(C)=O)c(C)c13)[C@@H](OC(=O)C13CCC(C)(C(=O)O1)C3(C)C)[C@@H](OC(=O)C13CCC(C)(C(=O)O1)C3(C)C)C(C)(C)O2", "cells": "MT-4", "strain": "IIIB", "value": "39.6 µM"}
{"compound": "CC(=O)O[C@@H]1C[C@H]2[C@@H]3C[C@H](OP(=O)(O)OC4O[C@H](CO)[C@@H](O)[C@H](O)[C@H]4O)[C@H]4C[C@@H](OS(=O)(=O)O)CC[C@]4(C)[C@H]3CC[C@]2(C)[C@H]1[C@H](C)CCCC(C)C", "cells": "CEM + CEM-SS", "strain": "RF", "value": ">100 µM"}
{"compound": "CC(C)=CCC[C@]1(C)C=Cc2c(ccc3c2C(=O)C(O)=C(C2=C(C4=C(O)C(=O)c5c(ccc6c5C=C[C@@](C)(CCC=C(C)C)O6)C4=O)C(=O)c4c(ccc5c4C=C[C@@](C)(CCC=C(C)C)O5)C2=O)C3=O)O1", "cells": "MT-4", "strain": "RF", "value": "≤0.02 µM"}
{"compound": "CC(C)=CCN1Cc2cc(Cl)cc3[nH]c(=O)n(c23)C[C@@H]1C", "cells": "MT-4", "mutations": "RT-L100I", "strain": "IIIB", "value": ">22 µM"}
{"compound": "CCn1cc(C(=O)O)c(=O)c2cc(F)c(N3CCN(CC(=O)N4C(=O)c5cccnc5N(C5CC5)c5nccc(C)c54)CC3)cc21", "cells": "CEM", "value": "1.29 µM"}
{"compound": "CC(C)CCC[C@@H](COS(=O)(=O)[O-])[C@H]1CCC2C3CC=C4[C@@H](O)[C@H](OS(=O)(=O)[O-])[C@H](O)C[C@]4(C)C3CC[C@@]21C.[Na+].[Na+]", "cells": "CEM + CEM-SS", "strain": "RF", "value": ">100 µM"}
{"compound": "Cc1cn([C@H]2C[C@H](N=[N+]=[N-])[C@@H](CO)O2)c(=O)[nH]c1=O", "cells": "MT-4", "strain": "IIIB", "value": "0.0055 µM"}
{"compound": "C=C1[C@H](CO)[C@@H](O)C[C@@H]1n1cnc2c(=O)[nH]c(N)nc21", "cells": "MT-2", "value": "11 µM"}
{"compound": "COc1c(Cl)cc(C(=CCN[C@H]2CC[C@@]3(C)[C@@H](CC[C@@H]4[C@@H]3CC[C@]3(C)[C@@H]([C@H](C)CCCC(C)C)CC[C@@H]43)C2)c2cc(Cl)c(OC)c(C(=O)O)c2)cc1C(=O)O", "cells": "CEM + CEM-SS", "strain": "RF", "value": ">125 µM"}
{"compound": "O=C(Nc1ccc(Cl)cc1)c1cc(S(=O)(=O)N2CCNNC2=O)c(S)cc1Cl", "cells": "CEM", "value": "19.8 µM"}
{"compound": "COc1ccc(C2(CCc3ccc(O)cc3)CC(O)=C(Sc3cc(C)c(CO)cc3C(C)(C)C)C(=O)O2)cc1", "cells": "CEM + CEM-SS", "strain": "RF", "value": "2 µM"}
{"compound": "FC(F)(Sc1ncccn1)c1nc2ccccc2o1", "cells": "CEM + CEM-SS", "strain": "IIIB", "value": "3.36 µM"}
{"compound": "Nc1ncnc2c1nnn2[C@H]1C=CC[C@@H](CO)C1", "cells": "CEM + CEM-SS", "strain": "RF", "value": ">50 µg/mL"}
{"compound": "CC(C)=CCOc1cc(NC(=S)c2ccoc2C)ccc1Cl", "cells": "CEM + CEM-SS", "mutations": "RT-L100I", "strain": "Oxathiin carboxanilide-resistant RT L100I", "value": "0.5 µM"}
{"compound": "CC(C)CCC[C@@H](C)[C@H]1CC[C@H]2[C@@H]3CC[C@H]4C[C@H](NC(=O)C=C(c5cc(Cl)c(O)c(C(=O)O)c5)c5cc(Cl)c(O)c(C(=O)O)c5)CC[C@]4(C)[C@H]3CC[C@]12C", "cells": "CEM + CEM-SS", "strain": "RF", "value": ">26.6 µM"}
{"compound": "Cc1ccnc(SC(F)(F)c2nc3ccccc3o2)n1", "cells": "CEM + CEM-SS", "mutations": "RT-L100I", "strain": "OC(RT-L100I)", "value": "0.38 µM"}
{"compound": "Cc1cc(C)cc(C(=O)c2c(C(C)C)c(=O)[nH]c(=O)n2CC2=CCCC2)c1", "cells": "CEM + CEM-SS", "strain": "RF", "value": "0.0001 µM"}
{"compound": "COc1c(Cl)cc(C(=CCC[C@H]2CC[C@@]3(C)[C@@H](CC[C@@H]4[C@@H]3CC[C@]3(C)[C@@H]([C@H](C)CCCC(C)C)CC[C@@H]43)C2)c2cc(Cl)c(OC)c(C(=O)O)c2)cc1C(=O)O", "cells": "CEM + CEM-SS", "strain": "RF", "value": "13.9 µM"}
{"compound": "CCc1c(C(=O)c2cc(C)cc(C)c2)n(CC2CC=CC2)c(=O)[nH]c1=O", "cells": "CEM + CEM-SS", "strain": "RF", "value": "0.002 µM"}
{"compound": "Nc1nc(NC2CC2)c2ncn([C@H]3C=CC[C@@H](CO)C3)c2n1", "cells": "CEM + CEM-SS", "strain": "RF", "value": ">50 µg/mL"}
{"compound": "Cc1c(COC(N)=O)c(=O)oc2c3c(ccc12)OC(C)(C)[C@H](OC(=O)C12CCC(C)(C(=O)O1)C2(C)C)[C@@H]3OC(=O)C12CCC(C)(C(=O)O1)C2(C)C", "cells": "MT-4", "strain": "IIIB", "value": "2.12 µM"}
{"compound": "CC(=O)c1ccc(C)cc1NC(C(N)=O)c1c(Cl)cccc1Cl", "cells": "CEM + CEM-SS", "mutations": "RT-Y181C", "strain": "UC781-R (RT-Y181C)", "value": ">1 µM"}
{"compound": "CC(C)C(CCOS(=O)(=O)O)CC[C@@H](C)[C@H]1[C@@H](O)[C@H](O)[C@@H]2[C@]1(C)CC[C@H]1[C@@]2(O)C[C@@H](O)[C@@]2(O)C[C@@H](O)CC[C@]12C", "cells": "CEM + CEM-SS", "strain": "RF", "value": ">100 µM"}
{"compound": "CC(C)=CCOc1cc(NC(=S)c2ccsc2C)ccc1Cl", "cells": "CEM + CEM-SS", "strain": "RF", "value": "0.004 µM"}
{"compound": "CN1N=C(N)c2cn([C@@H]3O[C@H](COP(=O)(O)O)[C@@H](O)[C@H]3O)c3ncnc1c23", "cells": "CEM + CEM-SS", "strain": "IIIB", "value": "0.02 µM"}

The first 5 rows once more:

compound,cells,mutations,strain,value
Nc1nc2c(ncn2[C@H]2C=CC[C@@H](CO)C2)c(=O)[nH]1,CEM + CEM-SS,,RF,>50 µg/mL
Cc1cc(C)nc(SC(F)(F)c2nc3ccccc3o2)n1,CEM + CEM-SS,,RF,2.16 µM
CCCCCCCCCCCCCCCC(=O)Nc1ccn([C@H]2C[C@H](OP(=O)(O)OC[C@H]3O[C@@H](n4cc(C)c(=O)[nH]c4=O)C[C@@H]3N=[N+]=[N-])[C@@H](CO)O2)c(=O)n1,CEM + CEM-SS,,IIIB,0.384–3.54 µM
CC(=O)N[C@H](CS(=O)(=O)c1ccc2ccccc2c1)C(=O)N[C@@H](Cc1ccccc1)[C@H](O)Cc1ccccc1C(=O)NC(C)(C)C,MT-2,,RF,0.03 µM
CC(C)Oc1ccccc1CNC(=O)c1ccc2cnccc2n1,CEM + CEM-SS,,RF,>31 µM